Measurements published in patent US9587005B2 (priority 2010, dated 2017).
The same purity stands for every peptide and may come from a single statement.

Assay: general procedure: Boc solid-phase peptide synthesis; MBHA resin, 100-180 mesh, 1% DVB, loading 0.7-1.0 mmol/g (Midwest Biotech); DEPBT/DIEA single couplings; DIC for acylation
Settings: Analytical HPLC, Xterra C8 at 220 nm or Zorbax SB-C8 at 214 nm

With “HaibQGTFTSDYSKYLDERAAQDFVQWLLDGGPSSGAPPPSC(S-palmityl)G-amide” the “final HPLC purity” value (lipidation step) was 90%+.
With “YaibQGTFTSDYSKYLDERAAQDFVQWLLDGGPSSGAPPPSK(K-γEC16,γEC12)G-NH2” the “final HPLC purity” value (whole synthesis, scale of the general procedure 0.2 mmole) was 90%+.
